PubChem BioAssay AID504761 | Drosophila RNAi Screening Center – 2011

Assay: 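Genome-wide fly cell screen for genes dengue virus requires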 (primary screen)
System: D.Mel-2 cells from Drosophila
Knock-down reagent: long dsRNA against Drosophila genes
Treatment: infection with dengue virus type 2; dose and infection time not stated
Measurement: 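Cells stained for dengue envelope protein and imaged; percent of infected cells per well on duplicate plates, ranked by infection, with stained nuclei counted for cell number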
Reading the numbers: infection score: higher = more virus-infected cells
Active means: 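Very low infection ranking in both replicate wells (chance probability at most 0.065), then a retest showing infection dropped 1.5-fold or more at p below 0.05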
Meaning of the calls: active = confirmed: knock-down lowers infection; inactive = not picked or not confirmed
The deposit covers about 22,000 reagents; below is an unselected part of those that have a named target and a result. In the full data, 116 (0.52%) are marked active. 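Calls depend on retest data that are not deposited; infection was ranked per plate without normalising between plates; the unit of the infection score is not given.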 A plus sign joins genes that one reagent is predicted to hit. Further read-outs or replicates are left out here. Not given: the amount of reagent, the time to read-out.

The opening 5 entries as a preview:
gene | amplicon | infection score, replicate 1 | infection score, replicate 2 | Call
Ir51b | DRSC05540 | 1.08 | 0.42 | inactive
CG33268 | DRSC10143 | 1.63 | 3.71 | inactive
waw + bbx | DRSC24894 | 3.05 | 9.36 | inactive
CG10543 | DRSC23102 | 2.96 | 4.25 | inactive
Cpr | DRSC03293 | 1.08 | 4.5 | inactive

Main list, from the start:
gene | amplicon | infection score, replicate 1 | infection score, replicate 2 | Call
Ir51b | DRSC05540 | 1.08 | 0.42 | inactive
CG33268 | DRSC10143 | 1.63 | 3.71 | inactive
waw + bbx | DRSC24894 | 3.05 | 9.36 | inactive
CG10543 | DRSC23102 | 2.96 | 4.25 | inactive
Cpr | DRSC03293 | 1.08 | 4.5 | inactive
Cpr | DRSC28411 | 8.15 | 8.1 | inactive
CG17744 | DRSC10286 | 2.03 | 2.57 | inactive
CG34284 | DRSC14773 | 4.79 | 1.43 | inactive
Ance-3 | DRSC02648 | 10.6 | 4.99 | inactive
Ance-3 | DRSC02649 | 8.9 | 1.96 | inactive
CtsK1 | DRSC08742 | 1.7 | 1.25 | inactive
CG15531 | DRSC15068 | 7.25 | 1.47 | inactive
CG15531 | DRSC24882 | 3.99 | 2.36 | inactive
osy | DRSC14903 | 4.61 | 14.8 | inactive
osy | DRSC15979 | 14.2 | 2.93 | inactive
osy | DRSC15981 | 3.95 | 15.3 | inactive
CG13616 | DRSC14619 | 3.92 | 3.18 | inactive
CG42819 + CG42820 | DRSC28699 | 9.3 | 9.26 | inactive
CG8389 | DRSC07158 | 17.4 | 29.1 | inactive
CG8389 | DRSC22855 | 4.6 | 8.03 | inactive
CG8389 | DRSC28233 | 10.6 | 13 | inactive
Rchy1 | DRSC23118 | 0.66 | 1.14 | inactive
Rchy1 | DRSC26775 | 2.54 | 7.03 | inactive
CG10638 | DRSC09762 | 3.77 | 17.9 | inactive
CG10638 | DRSC29762 | 14.7 | 10.9 | inactive
CG8854 | DRSC07288 | 9.03 | 5.8 | inactive
CG8854 | DRSC24639 | 5.72 | 3.29 | inactive
pcm | DRSC20361 | – | 3.99 | inactive
Pa1 | DRSC19422 | 1.87 | 3.82 | inactive
Pa1 | DRSC29046 | 21 | – | inactive
CG30334 | DRSC05345 | 4.2 | 1.67 | inactive
CG30334 | DRSC24086 | 6.68 | 3.86 | inactive
mtt | DRSC05106 | 7.79 | 6.31 | inactive
mtt | DRSC05107 | 2.71 | 0.65 | inactive
mtt | DRSC06753 | 4.88 | 12.9 | inactive
mtt | DRSC07235 | 7.51 | 4.44 | inactive
Bap60 | DRSC19337 | 3.58 | 5.68 | inactive
CG46491 | DRSC06565 | 6.62 | 3.85 | inactive
CG46491 | DRSC06566 | 5.07 | 4.19 | inactive
Arpc3B | DRSC20126 | 14 | 3.93 | inactive
Arpc3B | DRSC28523 | 9.45 | 21.4 | inactive
ndl | DRSC11374 | 3.98 | 8.31 | inactive
ndl | DRSC26902 | 3.5 | 8.17 | inactive
ND-18 | DRSC19441 | 8.21 | 1.76 | inactive
Galt | DRSC03161 | 5.23 | 3.39 | inactive
ZnT49B | DRSC07225 | 12.5 | 7.91 | inactive
kappaB-Ras + CG30503 | DRSC06619 | 10.1 | 5.72 | inactive
kappaB-Ras + CG30503 | DRSC07636 | 9.05 | 5.44 | inactive
kappaB-Ras + CG30503 | DRSC25537 | 4.41 | 2.75 | inactive
asRNA:CR42743 + CG34162 | DRSC01190 | 5.54 | 0.89 | inactive
Or56a | DRSC07495 | 2.48 | 2.29 | inactive
E23 | DRSC00593 | 1.82 | 4.13 | inactive
E23 | DRSC25491 | 2.1 | 1.54 | inactive
kat80 | DRSC20344 | 3.28 | 10 | inactive
kat80 | DRSC20345 | 1.64 | 3.48 | inactive
OtopLb | DRSC00594 | 6.46 | 6.55 | inactive
OtopLb | DRSC27337 | 10.1 | 6.52 | inactive
Myo61F | DRSC22144 | 1.76 | 16 | inactive
Myo61F | DRSC27633 | 3.7 | 7.79 | inactive
